These results are taken from patent US20240254204A1.

The target of test [1] is SARS-CoV-2 Alpha (SARS-CoV-2 B.1.1.7 (Alpha)).
The target of test [2] is SARS-CoV-2 Beta (SARS-CoV-2 B.1.351 (Beta)).
Test [3] concerns the target SARS-CoV-2 Omicron BA.2 (SARS-CoV-2 Omicron BA.2).
Test [4] concerns the target Bat CoV RaTG13 (SC2r-CoV RaTG13 (bat)).

Usually IC50 stands for the point on the concentration scale where inhibition reaches its midpoint. Lower therefore signals higher potency. S2X259 came in with an IC50 in test [1] of 0.106 µg/mL.
Regarding LyCoV-1404, the IC50 was determined as 0.079 µg/mL in test [2] and 0.344 µg/mL in test [3].
In test [4], CR3022 gave an IC50 of 0.437 µg/mL.
